Values from PubChem BioAssay AID1259414 (Drosophila RNAi Screening Center, 2018)
The deposit covers about 24,000 reagents; shown is an unselected part of those that have a named target and a result. Of all reagents, about 1,210 (5%) are marked active. 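Inactive calls also include excluded dsRNAs with several or no targets, genes unexpressed in JW18, and well A1, regardless of score.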 Unmarked entries are inactive.

Screen: 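Genome-wide screen for host control of endosymbiont load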 (primary screen)
System: Drosophila JW18 cells infected with Wolbachia
Reagents: long dsRNA against Drosophila genes, 0.25 µg dsRNA per well of a 384-well plate
Time to read-out: 5 days
Challenge: cells persistently infected with Wolbachia before knock-down; no added drug
Detection: 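Automated imaging of bacterial rRNA staining divided by host cell count, reported as plate-normalised robust z-score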
Direction: Wolbachia per cell robust z: higher = more Wolbachia per host cell than the plate typical
Active means: 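Active if absolute robust z reaches 1.5 in two or more of three replicates, leaving out multi- or no-target dsRNAs, genes unexpressed in JW18 and A1 wells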

| Target gene | dsRNA | Wolbachia per cell robust z, rep 1 | Wolbachia per cell robust z, rep 2 | Wolbachia per cell robust z, rep 3 |
| --- | --- | --- | --- | --- |
| Ptp61F (GeneID 38160) | DRSC08683 | 0.924 | 1.41 | -0.279 |
| Ptp61F (GeneID 38160) | DRSC28719 | -2.77 (active) | -2.27 | -0.576 |
| CG13083 (GeneID 35230) | DRSC02187 | 0.521 | 1.36 | 1.74 |
| CG13083 (GeneID 35230) | DRSC28424 | -0.22 | 0.0865 | -0.296 |
| CG33341 (GeneID 2768683) | DRSC22887 | -0.734 | -1.06 | 0.314 |
| CG33341 (GeneID 2768683) | DRSC24893 | 2.28 | 0.358 | -0.463 |
| CG33341 (GeneID 2768683) | DRSC39098 | -0.46 | -1.11 | -0.0668 |
| CG15177 (GeneID 40810) | DRSC12557 | -3.63 | -0.591 | -2.07 |
| CG15177 (GeneID 40810) | DRSC24687 | 0.617 | 0.122 | -0.211 |
| Rabex-5 (GeneID 38144) | DRSC08628 | -0.488 | -0.442 | -8.96 |
| Rabex-5 (GeneID 38144) | DRSC29819 | 0.492 | 0.181 | -1.23 |
| Gr59e (GeneID 37725) | DRSC04276 | -1.13 | -0.875 | -0.722 |
| Sgs7 (GeneID 47198) | DRSC11281 | -2.12 | 0.849 | 0.887 |
| jet (GeneID 33705) | DRSC03116 | -0.456 | -0.659 | 0.0484 |
| jet (GeneID 33705) | DRSC26732 | -0.457 | -4.01 | -0.0925 |
| Art3 (GeneID 41837) | DRSC16065 | -0.0785 | -0.229 | 1.24 |
| ND-B16.6 (GeneID 31578) | DRSC18306 | -0.276 | 1.01 | -0.338 |
| ND-B16.6 (GeneID 31578) | DRSC22600 | 0.58 | 0.747 | -0.828 |
| ND-B16.6 (GeneID 31578) | DRSC26200 | -0.0761 | -0.544 | -0.82 |
| del (GeneID 35380) | DRSC03170 | -3.66 | -0.548 | 0.129 |
| Pur-alpha (GeneID 43797) | DRSC17166 | -1.49 | 0.59 | -1.61 |
| RpS15 (GeneID 36851) | DRSC07151 | 2.18 | 3.19 | -0.0779 |
| RpS15 (GeneID 36851) | DRSC23462 | 2.81 (active) | 8.12 | 6.93 |
| NijA (GeneID 39215) | DRSC10637 | 0.173 | 1.04 | 0.615 |
| Cpr (GeneID 33883) | DRSC03293 | 0.676 | 0.484 | -0.794 |
| Cpr (GeneID 33883) | DRSC28411 | -0.239 | 0.105 | 0.0204 |
| CG2663 (GeneID 40649) | DRSC12314 | -2.06 | -7.51 | -0.399 |
| CG2663 (GeneID 40649) | DRSC28701 | -6.14 | 0.388 | -2.08 |
| RanGAP (GeneID 35223) | DRSC22003 | -0.673 | -0.671 | -1.52 |
| RanGAP (GeneID 35223) | DRSC29400 | 0.669 | -0.0546 | -0.329 |
| CG8366 (GeneID 36754) | DRSC07153 | 0.164 | -0.00499 | -0.0738 |
| hry (GeneID 38995) | DRSC23249 | -0.00208 | 0.421 | -0.035 |
| hry (GeneID 38995) | DRSC30106 | 0.766 | 1.03 | 0.677 |
| Dora (GeneID 50356) | DRSC19614 | 0.0765 | 0.671 | 1.02 |
| Dora (GeneID 50356) | DRSC19781 | 0.505 | 0.277 | 0.516 |
| Dora (GeneID 50356) | DRSC20034 | -0.426 | -0.542 | -1.16 |
| Dora (GeneID 50356) | DRSC20035 | -0.127 | -0.343 | -0.257 |
| Dora (GeneID 50356) | DRSC27055 | -1.03 | -0.232 | 2.02 |
| Dora (GeneID 50356) | DRSC28428 | -0.421 | 0.534 | 0.978 |
| CG3611 (GeneID 37972) | DRSC04395 | 0.76 | -1.49 | 0.59 |
| CG7182 (GeneID 38944) | DRSC10780 | 1.75 | -0.409 | 0.0677 |
| CG7182 (GeneID 38944) | DRSC24776 | 0.594 | 0.819 | 0.425 |
| CG13615 (GeneID 42916) | DRSC14618 | -0.682 | -1.92 | 0.872 |
| CG13615 (GeneID 42916) | DRSC24018 | -7.27 | -0.908 | 0.646 |
| Tmhs (GeneID 38251) | DRSC08231 | -0.494 | -0.796 | -7.35 |
| kn (GeneID 45318) | DRSC06196 | -0.301 | -0.727 | 0.355 |
| kn (GeneID 45318) | DRSC07637 | 0.199 | -0.256 | 0.0236 |
| kn (GeneID 45318) | DRSC21533 | -0.501 | -1.34 | -0.959 |
| kn (GeneID 45318) | DRSC23818 | -0.459 | 0.346 | 0.0262 |
| trbl (GeneID 43999) | DRSC11901 | -1.17 | -1.02 | -0.928 |
| CG33506 (GeneID 3346177) | DRSC05981 | 0.049 | -1.12 | 0 |
| CG13045 (GeneID 39792) | DRSC09926 | -2.29 | -4.73 | -8.78 |
| CG13045 (GeneID 39792) | DRSC25454 | -2.15 | -0.21 | -1.41 |
| dpr12 (GeneID 50320) | DRSC04863 | -0.157 | -0.223 | 0.0843 |
| dpr12 (GeneID 50320) | DRSC04892 | -0.291 | -7.45 | -2.17 |
| CG8314 (GeneID 36757) | DRSC07144 | -0.462 | 0.507 | -1.04 |
| Ddrgk1 (GeneID 42516) | DRSC15897 | 0.0747 | -0.336 | -4.68 |
| Ddrgk1 (GeneID 42516) | DRSC27688 | -0.719 | -0.764 | -0.659 |
| CG17944 (GeneID 40885) | DRSC12572 | -2.39 | -1.22 | -0.458 |
| CG3092 (GeneID 37682) | DRSC04336 | -0.566 | -6.62 | -0.202 |
| CG3092 (GeneID 37682) | DRSC30054 | 0.592 | 0.424 | 0.538 |
| alpha-Est7 (GeneID 40901) | DRSC12619 | -1.25 | 0.751 | -0.429 |
| alpha-Est7 (GeneID 40901) | DRSC27539 | 1.29 | 0.671 | 0.559 |
| Phs (GeneID 39697) | DRSC10827 | -1.59 | 0.989 | 0.508 |
| Phs (GeneID 39697) | DRSC29714 | -2.24 | 0.944 | 0.165 |
| Cln7 (GeneID 38813) | DRSC11005 | 0.113 | 0.00362 | -0.359 |
| CG43428 (GeneID 12798467) | DRSC06205 | -0.0411 | -1.24 | 0.294 |
| CG43428 (GeneID 12798467) | DRSC25601 | 0.312 | -0.679 | 0.573 |
